Data reported in US8299021B2, “Macrocyclic inhibitors of hepatitis C virus replication” (InterMune, Inc., priority 2005, dated 2012).

The chains behind the UniProt entries cited, without tags or fusion partners. Residues count along the entry.
UniProt P27958, 1027-1657 limits assumed: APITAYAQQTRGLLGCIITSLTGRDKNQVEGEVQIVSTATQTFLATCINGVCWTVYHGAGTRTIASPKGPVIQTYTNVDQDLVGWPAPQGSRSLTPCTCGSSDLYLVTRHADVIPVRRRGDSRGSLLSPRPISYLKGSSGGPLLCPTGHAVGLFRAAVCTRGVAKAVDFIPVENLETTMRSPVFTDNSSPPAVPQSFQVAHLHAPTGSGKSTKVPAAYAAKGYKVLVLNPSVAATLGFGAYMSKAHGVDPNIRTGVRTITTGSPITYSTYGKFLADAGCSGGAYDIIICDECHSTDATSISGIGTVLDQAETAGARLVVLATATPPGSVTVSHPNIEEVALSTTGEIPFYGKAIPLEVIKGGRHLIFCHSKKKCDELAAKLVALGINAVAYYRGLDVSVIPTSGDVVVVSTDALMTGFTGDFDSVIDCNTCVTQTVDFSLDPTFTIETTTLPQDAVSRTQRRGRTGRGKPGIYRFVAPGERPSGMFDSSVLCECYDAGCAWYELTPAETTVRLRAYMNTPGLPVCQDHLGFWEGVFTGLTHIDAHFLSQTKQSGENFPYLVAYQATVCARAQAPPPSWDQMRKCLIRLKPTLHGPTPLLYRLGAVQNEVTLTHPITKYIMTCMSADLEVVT

Target: NS3-NS4 protease (full-length NS3/NS4A-2) (Hepatitis C virus genotype 1a, UniProt P27958)
Assay: NS3-NS4 protease assay / NS3 inhibition assay (RETS1 substrate, fluorescence kinetic read)
Type: biochemical
Conditions: read-out: NS3-NS4 IC50; Table 22

**Q.** For `CC(C)(C)OC(=O)N[C@H]1CCCCC/C=C\[C@@H]2C[C@@]2(C(=O)NCc2cccs2)NC(=O)[C@@H]2CCCN2C1=O`, which IC50 is on record?
**A.** The IC50 was less than 1000 nM.
